A mixed list of measured activities; the numbers were collected in NIAID ChemDB.

All rows: growth or infection tests; agent: HIV-1; read by: cytopathic effect / MTT; read-out: fold resistance

Fold resistance has wild type as its base. Neighbouring rows are from separate reports. Blank or dashed fields: not listed here.

smiles | cell line | strain | mutations | value
Fc1cccc(F)c1C1SCc2nc3ccccc3n21 | CEM | IIIB | RT-K103N | 11.22
CCc1c(C)[nH]c(=O)c(N(C)C)c1C(=O)c1cc(Cl)cc(Cl)c1 | MT-4 |  | RT-E138K | 8.5
CCOCn1c(Cc2ccccc2)c(C(C)C)c(=O)[nH]c1=O |  | HXB2 | RT-Y181C | 380
Cc1cn([C@H]2C[C@H](N=[N+]=[N-])[C@@H](COC(=O)NCCSC(=O)OC[C@H]3O[C@@H](n4cc(C)c(=O)[nH]c4=O)C[C@@H]3N=[N+]=[N-])O2)c(=O)[nH]c1=O | MT-4 | NNRTI-resistant (RT Y181C) | RT-Y181C | 0.2
O=S(=O)(O)OC1C(OS(=O)(=O)O)C(OS(=O)(=O)O)C(OS(=O)(=O)O)C(OS(=O)(=O)O)C1OS(=O)(=O)O | MT-4 | NL4-3 | GP120-N323D | 1
CCc1c(C)[nH]c(=O)c(N(C)C)c1Cc1cc(F)cc(F)c1 | MT-4 |  | RT-K103N | 2.46
Cc1cn([C@H]2C=C[C@@H](COC(=O)NCCSC(=O)OC[C@@H]3CC[C@H](n4cnc5c(=O)[nH]cnc54)O3)O2)c(=O)[nH]c1=O | MT-4 | NNRTI-resistant (RT Y181C) | RT-Y181C | 0.3
C/C(C#N)=C\c1cc(C)c(Nc2ccnc(Nc3ccc(C#N)cc3)n2)c(C)c1 | MT-4 |  | RT-Y188L | 3.95
Fc1cccc(Cl)c1C1OCc2nc3ccccc3n21 | CEM | TIBO R82150-resistant (RT K103N) | RT-K103N | >2.35
CNc1cccc2c1nc(-c1c(F)cccc1F)n2Cc1c(F)cccc1F | MT-4 |  | RT-K103N | 20.4
Cc1cn([C@@H]2O[C@H](CO[Si](C)(C)C(C)(C)C)C3(OS(=O)(=O)C=C3N)[C@H]2O[Si](C)(C)C(C)(C)C)c(=O)n(C)c1=O | MT-4 | Recombinant mutant | RT-E138A | 5.7
Cc1c(Cc2c(F)cccc2F)nc(SCc2ccc(C(C)C)cc2)[nH]c1=O | MT-4 |  | RT-Y188L | >106.9
O=c1[nH]cnc2c1ncn2[C@H]1CC[C@@H](CO)O1 | MT-4 | IIIB | RT-M184V | 4
O=C1c2ccccc2C(=O)N1CCOC(=S)N(C(=O)c1ccccc1)c1ccccc1 | MT-4 | A17 | RT-K103N Y181C | >250
CC(C)CN([C@H](CO)CCCCNC(=O)[C@@H](NC(=O)c1ccc(N)nc1)C(c1ccccc1)c1ccccc1)S(=O)(=O)c1ccc(N)cc1 | MT-4 | 4596 PR-M46I V82T I84V L10R L63P | PR-M46I V82T I84V L10R L63P | 0.86
CC(C)=CCN1Cc2cc(Cl)cc3[nH]c(=S)n(c23)C[C@@H]1C | MT-4 | Recombinant mutant | RT-A98S | 0.5
Nc1cccc2c1nc(-c1c(F)cccc1F)n2Cc1c(F)cccc1F | MT-4 |  | RT-V179D | 0.75
COC(=O)c1cccc2c1nc(-c1c(F)cccc1F)n2Cc1c(F)cccc1F | MT-4 |  | RT-Y181C | 16.8
C/C(C#N)=C/c1cc(C)c(Nc2ccnc(Nc3ccc(C#N)cc3)n2)c(C)c1 | MT-4 |  | RT-L100I | 3.95
O=C1c2ccccc2C(=O)N1CCOC(=S)N(C(=O)c1ccco1)c1ccc([N+](=O)[O-])cc1 | MT-4 | IIIB | RT-K103R V179D P225H | >12500
Fc1cccc(F)c1Cn1c(-c2c(F)cccc2F)nc2c(Br)cccc21 | MT-4 |  | RT-V108I | 6.4
CC(=O)Nc1cccc2c1nc(-c1c(F)cccc1F)n2Cc1c(F)cccc1F | MT-4 |  | RT-L100I | 16
O=c1[nH]cnc2c1ncn2[C@H]1CC[C@@H](CO)O1 | MT-4 | IIIB MKC-442-resistant (RT Y181C) | RT-Y181C | 0.489
CCc1c(C)[nH]c(=O)c(N(C)C)c1C(=O)c1cccc(/C=C/c2cccnc2)c1 | MT-4 |  | RT-Y188L | 52.6
Nc1nc(=O)n([C@H]2CS[C@@H](CO)O2)cc1F | MT-4 | RF | RT-M184I | 3.37
CNc1nc(C(C)c2c(F)cccc2F)c(C)c(=O)[nH]1 | MT-4 |  | RT-Y181C | 650
Fc1cccc(F)c1C1OCc2nc3ccccc3n21 | CEM | TIBO R82150-resistant (RT K103N) | RT-K103N | ≥3.64
Cc1cn([C@H]2C=C[C@@H](COC(=O)NCCSC(=O)OC[C@@H]3C=C[C@H](n4cc(C)c(=O)[nH]c4=O)O3)O2)c(=O)[nH]c1=O | MT-4 | NNRTI-resistant (RT K103N Y181C) | RT-K103N Y181C | >0.44
N#Cc1ccc(Nc2nc(N)nc(Cc3c(Cl)cccc3Cl)n2)cc1 | MT-4 | NNRTI-resistant (RT L100I K103N) | RT-L100I K103N | >1666
CC(C)c1c(CO)cn(Cc2ccncc2)c1Sc1ccccc1 |  |  | RT-K103N | <96
CCc1c(Sc2cc(C)cc(C)c2)n(COCCO)c(=O)[nH]c1=O | MT-4 | IIIB | RT-D67N K70R K172R | 2
Nc1nc(NC2CC2)c2ncn([C@H]3C=C[C@@H](CO)O3)c2n1 | PBMC | BRU PITT.(RT-L74V) | RT-L74V | 2
CNc1cccc2c1nc(-c1c(F)cccc1F)n2Cc1c(F)cccc1F | MT-4 |  | RT-K103N | 20.4
Nc1nc(NC2CC2)c2ncn([C@H]3C=C[C@@H](CO)C3)c2n1 | MT-4 | SW3-10125R | RT M41L A62V T69SSS insertion V75V/A M184I L210W T215Y | 3
CCc1c(C)[nH]c(=O)c(N(C)C)c1C(=O)c1cccc(C#N)c1 | MT-4 |  | RT-K101E K103N | 14
COc1ccc2c(c1)N(C(=O)OC(C)C)[C@@H](CSC)C(=S)N2 | MT-4 | IIIB | RT-E138K | 3
N#Cc1ccc(Nc2nc(Cc3c(Cl)cccc3Cl)nc(NO)n2)cc1 | MT-4 | NNRTI-resistant (RT K103N Y181C) | RT-K103N Y181C | 176.5
CC(=O)Nc1cccc2c1nc(-c1c(F)cccc1F)n2Cc1c(F)cccc1F | MT-4 |  | RT-L100I | 16
CC(=O)c1ccc(C)cc1NC(C(N)=O)c1c(Cl)cccc1Cl | MT-4 | Recombinant mutant | RT-A98S E138A | 2.1
CC(c1cc(=O)[nH]c(NC2CCCC2)n1)c1c(F)cccc1F | MT-4 |  | RT-Y181C | 25
Cc1ccnc2c1NC(=O)c1cccnc1N2C1CC1 | MT-4 | IIIB-R (RT-Y181C) | RT-Y181C | 2910
CC(=O)c1ccc(S(=O)(=O)N(CC(C)C)C[C@@H](O)[C@H](Cc2ccccc2)NC(=O)O[C@H]2CO[C@H]3OCC[C@H]32)cc1 | MT-4 | PI RES(PR-L10M/I K20R M36I A71V G73S V77I I84V L90M) M2 | PR-L10M/I K20R M36I A71V G73S V77I I84V L90M | 8.7
O=C1c2ccccc2C(=O)N1CCOC(=S)N(C(=O)c1cccs1)c1ccc(Cl)cc1 | MT-4 | IIIB | RT-K103R V179D P225H | >12500
Cc1ccc(C(=O)N[C@H](C(=O)NCCCC[C@@H](CO)N(CC(C)C)S(=O)(=O)c2ccc(N)cc2)C(c2ccccc2)c2ccccc2)cn1 | MT-4 | 4596 PR-M46I V82T I84V L10R L63P | PR-M46I V82T I84V L10R L63P | 1.42
Cc1c(Cc2c(F)cccc2F)nc(NC2CCCC2)[nH]c1=O | MT-4 |  | RT-Y181C | 42
Cc1cn([C@H]2C[C@H](N=[N+]=[N-])[C@@H](CO)O2)c(=O)[nH]c1=O | MT-4 | IIIB MKC-442-resistant (RT Y181C) | RT-Y181C | 0.5
CC(=O)O[C@@]12C[C@@H](C)[C@@]3(O)[C@@H](C=C(CO)C[C@]4(O)C(=O)C(C)=C[C@@H]34)[C@@H]1C2(C)C | MT-4 | NRTI resistant | RT K70R T215Y 69SS A62V E79K V118I M184V E203K L210W | 0.8
Fc1cccc(F)c1Cn1c(-c2c(F)cccc2F)nc2c(Br)cccc21 | MT-4 |  | RT-K103N | 20.4